The values below come from patent US20110251085A1, “IN VITRO METHOD TO DETERMINE WHETHER A DRUG CANDIDATE ACTIVE AGAINST A TARGET PROTEIN IS ACTIVE AGAINST A VARIANT OF SAID PROTEIN” (VIVALIS, priority 2008, published 2011).

Common to all, as to test: cell-based or functional assay
The target of test [1] is single chain NS4A-NS3 protease A156V mutant fused to Gal4 DBD (pVVS781) (yeast; hepatitis C virus genotype 1b), P26662.
For test [2], the target named is NS5BΔ21 (genotype 1b, native) fused to the yeast Gal4 DNA Binding Domain (pVVS478) (yeast; hepatitis C virus genotype 1b), P26662.
The target in test [3] is single chain NS4A-NS3 full length A156V mutant fused to Gal4 DBD (pVVS783) (yeast; hepatitis C virus genotype 1b), P26662.

For WRPYYTVLCALASWH (modifications not checked) [3D-sensor V7-62 fused to the VP16 activation domain], in test [1], the luciferase activity over background without the 3D sensor-VP16AD (times background) was determined as 33.

Consider DGCARCVASVQLYGD (modifications not checked) [3D-sensor N21C272 fused to the VP16 activation domain], for which, in test [2], the Signal/Background was 16, the luciferase activity over background without the 3D sensor-VP16AD (times background) was 17 and the luciferase expression (uninhibited signal) was 115000 RLU. In the case of PSNHRQSTRSTPWLW (modifications not checked) [3D-sensor H5-34 fused to the VP16 activation domain], the luciferase activity over background without the 3D sensor-VP16AD (times background) in test [3] is 56.
